Results of unrelated studies side by side (data: NIAID ChemDB).

Shared fields: tests on isolated targets; organism: HIV-1; target: Reverse transcriptase; endpoint: inhibition

An empty or dashed field is not shown. Rows are shuffled and stem from different studies. Inhibition is in % at the dose shown (toxicity tests: loss of growth or viability).

structure	dose	mutations	read by	strain or isolate	result
CC(C)(C)[Si](C)(C)OCCCC[C@H]1CCCCCC[C@@H](CCCCO[Si](C)(C)C(C)(C)C)[NH+]=C(N)N1.F[B-](F)(F)F	40 µM		RT activity / radiometric		5.8%
Cc1cc(C=O)cc(C)c1Oc1cc(Nc2ccc(C#N)cc2)nc2ccccc12	1 µM		RT activity / ELISA		34%
CCN1c2ncccc2C(=O)Nc2c(C=O)cc(OC)nc21	78 µM			WT	1%
Cc1ccc2c(c1)Oc1nnc(Cl)cc1C(=O)N2	33 µM		ELISA		36%
CCCN1C(=O)c2cc(Cl)nnc2N(CCC)c2ccccc21	33 µM				25%
CCN1c2ncccc2C(=O)Nc2c(C=O)cc(=O)[nH]c21	36 µM			WT	1%
CC(C)Nc1cccnc1N(C)CCN(C)C(=O)c1cc2ccccc2[nH]1	100 µM		nucleotide incorporation		83.5%
CCCCCCCCCCCCCCCC(=O)NC1C(COP(=O)(O)OC2C(O)C(COP(=O)(O)OC3CC(CO)OC3n3cnc4c(N)ncnc43)OC2n2cnc3c(N)ncnc32)OC(n2cnc3c(N)ncnc32)C1O	100 µM				78%
CCCN1C(=O)c2ccnnc2N(CC)c2ccccc21	330 µM				85%
CCCCCCCCCCCCCCCC(=O)NC1C(COP(=O)(O)OC2CC(COP(=O)(O)OC3CC(CO)OC3n3cnc4c(N)ncnc43)OC2n2cnc3c(N)ncnc32)OC(n2cnc3c(N)ncnc32)C1O	100 µM				54%
CCNc1cccnc1N1CCN(Cc2cc(C(C)C)c(O)c(C(C)C)c2)CC1	100 µM		nucleotide incorporation		0%
CCCCCCCCCCCCCCCC(=O)NCC1CC(OP(=O)(O)OCC2CC(OP(=O)(O)OCC3CC(O)C(n4cnc5c(N)ncnc54)O3)C(n3cnc4c(N)ncnc43)O2)C(n2cnc3c(N)ncnc32)O1	100 µM		RT activity	IIIB	26.8%
C[C@@H]1CCCCCC[C@H](CCCCO)[NH+]=C(N)N1	40 µM		RT activity / radiometric		14.6%
O=C(O[C@@H]1O[C@@H]2COC(=O)c3cc(O)c(O)c(O)c3-c3c(cc(O)c(O)c3O)C(=O)O[C@H]([C@H]1OC(=O)c1cc(O)c(O)c(O)c1)[C@@H]2OC(=O)c1cc(O)c(O)c(O)c1)c1cc(O)c(O)c(O)c1	20 µg/mL		nucleotide incorporation		0%
CCCN1C(=O)c2ccnnc2Oc2ccc(C)cc21	33 µM		ELISA		26%
C/C1=C\C=C\C2(C)C=C(CO)C(C)CC23OC([O-])C(C3=O)C(O)/C=C/C2(C)C=C(C=O)C(C)CC23OC([O-])C(C3=O)C(O)/C(C)=C/C=C/C2C=C(CO)C(C)CC23OC([O-])C(C3=O)C(O)/C=C/C2(C)C=C(C=O)C(C)CC23OC([O-])C(C3=O)C1O	100 µg/mL		RT activity	IIIB	94.9%
CC(C)Nc1cccnc1N(C)N(C)C(=O)c1cc2ccccc2[nH]1	100 µM		nucleotide incorporation		12%
CC(=O)OCCCC[C@H]1CCCCCC[C@@H](C)NC(N)=[NH+]1	10 µM		RT activity / radiometric		4.3%
CCN1c2ccc(C)cc2N(C)C(=O)c2cc(Cl)nnc21	33 µM				13%
CCCCCCCCCC(=O)OCCCC[C@H]1CCCCCC[C@@H](C)NC(N)=[NH+]1	10 µM		RT activity / radiometric		7.7%
CCCCCCCCCCCCCCCC(=O)NCC1CC(OP(=O)(O)OCC2OC(n3cnc4c(N)ncnc43)C(OP(=O)(O)OCC3OC(n4cnc5c(N)ncnc54)C(O)C3O)C2O)C(n2cnc3c(N)ncnc32)O1	100 µM		RT activity	IIIB	61.9%
CC(C)Nc1cccnc1N(C)[C@H]1CCCC[C@@H]1N(C)C(=O)c1cc2ccccc2[nH]1	100 µM		nucleotide incorporation		0%
O=C(OC[C@H]1O[C@@H](OC(=O)c2cc(O)c(O)c(O)c2)[C@H](OC(=O)c2cc(O)c(O)c(O)c2)[C@@H](OC(=O)c2cc(O)c(O)c(O)c2)[C@@H]1OC(=O)c1cc(O)c(O)c(O)c1)c1cc(O)c(O)c(O)c1	20 µg/mL		nucleotide incorporation		0%
CCN1C(=O)c2ccnnc2N(CC)c2ccc(C)cc21	330 µM				85%
CC(=O)OC(C)CCCCC[C@H]1CCCCCC[C@@H](C)NC(N)=[NH+]1.F[B-](F)(F)F	10 µM		RT activity / radiometric		5.9%
O=C(OC[C@H]1O[C@@H](OC(=O)c2cc(O)c(O)c(O)c2)[C@H](OC(=O)c2cc(O)c(O)c(O)c2)[C@@H](OC(=O)c2cc(O)c(O)c(O)c2)[C@@H]1OC(=O)c1cc(O)c(O)c(O)c1Oc1cc2c(c(O)c1O)-c1c(cc(O)c(O)c1O)C(=O)OC[C@H]1O[C@@H](OC(=O)c3cc(O)c(O)c(O)c3)[C@H](OC(=O)c3cc(O)c(O)c(O)c3)[C@@H](OC(=O)c3cc(O)c(O)c(O)c3)[C@@H]1OC2=O)c1cc(O)c(O)c(O)c1	20 µg/mL		nucleotide incorporation		0%
COc1cccc2[nH]c(C(=O)N3CCN(c4ncccc4NC(C)C)CC3)cc12	100 µM		nucleotide incorporation		61%
CCCN1C(=O)c2cc(Cl)nnc2N(C2CC2)c2ccccc21	330 µM				93%
COc1ccc2c(c1)N(C)C(=O)c1ccnnc1O2	330 µM		ELISA		39%
CCCN1c2ccccc2N(C)C(=O)c2ccnnc21	33 µM				36%
CCN1c2ncccc2C(=O)Nc2c(C3OCCCO3)cc(-c3cccc(OC)c3)nc21	7 µM	RT-Y181C			1%
O=C(O)C1=C[C@@H](O)[C@@H](O)[C@H](OC(=O)c2cc(O)c(O)c(O)c2)C1	20 µg/mL		nucleotide incorporation		0%
CCOC(=O)CN1C(=O)c2ccnnc2Oc2ccccc21	33 µM		ELISA		22%
CCN1c2ncccc2C(=O)Nc2c(COCc3ccccc3)cc(=O)[nH]c21	83 µM			WT	1%
Cc1ccc2c(c1)N(CCC(C)C)C(=O)c1ccnnc1O2	33 µM		ELISA		20%
CC(C)Nc1cccnc1N(C)CCCCN(C)C(=O)c1cc2ccccc2[nH]1	100 µM		nucleotide incorporation		91%
CCCCCCCCCCCCCCCC(=O)NCC1OC(n2cnc3c(N)ncnc32)C(OP(=O)(O)OCC2CC(OP(=O)(O)OCC3OC(n4cnc5c(N)ncnc54)C(O)C3O)C(n3cnc4c(N)ncnc43)O2)C1O	100 µM		RT activity	IIIB	84.5%
Cc1ccc2c(c1)NC(=O)c1cc(Cl)nnc1O2	33 µM		ELISA		8%